Results reported in patent publication US20220153786A1, “PEPTIDES FOR PREVENTING BIOFILM FORMATION” (priority 2019, published 2022).
Entries after “also recorded” stand apart in the source; their conditions may differ.

Tested on: S. epidermidis cultures
Assay: Confocal fluorescence microscopy (CFM) localisation of FITC-labelled peptide
Assay type: cell-based, Staphylococcus epidermidis
Settings: 10 μM FITC-labelled peptide, 1, 4 or 24 h

Capsicumicine-fluorescein isothiocyanate [capsicumicine-FITC]
localisation of peptide (CFM): stays associated with extracellular matrix components; also recorded: exclusively on the matrix
